Anti-infective test results gathered from many reports (values: NIAID ChemDB through PubChem).

Shared fields: enzyme or target tests; species: Hepatitis C virus; target: Nonstructural protein 5B; read-out: IC50

ICn is the concentration giving n% inhibition. a–b is a range or a potency band. Blank or dashed fields: not listed here. Rows are shuffled and stem from different studies.

smiles	method	strain or isolate	result
COc1ccc(-c2ccc(C=C3SC(=S)N(c4ccc(C(=O)O)cc4)C3=O)o2)cc1OC			≤1 µM
Cc1cc(SC2=C(O)CC(CCc3ccc(O)cc3)(C3CCCC3)OC2=O)c(C(C)(C)C)cc1CO			<1 µM
COc1nc(NCCCn2ccnc2)nc(Nc2ccc3cn[nH]c3c2)n1			1–10 µg/mL
CNC(=O)c1c(-c2ccc(F)cc2)oc2cc(N(Cc3cccc(CBr)n3)S(C)(=O)=O)c(OCc3cccc(CBr)n3)cc12			≤0.5 µM
COc1ccc(CCC2(C3CCCC3)CC(=O)CC(=O)O2)c(C#N)c1			10–50 µM
O=C1NC(=S)SC1=Cc1ccc(-c2ccc(Cl)c(Cl)c2)s1			≤1 µM
COc1nc(Nc2ccc3[nH]ncc3c2)nc(NC2CC2)n1			1–10 µg/mL
O=C(O)c1ccc(N2C(=O)C(=Cc3ccc(-c4ccc(F)c(F)c4)o3)SC2=S)cc1			≤1 µM
CNC(=O)c1c(-c2ccc(F)cc2)oc2cc(N(C)S(C)(=O)=O)c(O)cc12			≤0.5 µM
CNC(=O)C1CCN(c2nc(Nc3ccc4[nH]ncc4c3)nc(OC)n2)CC1			>10 µg/mL
CNC(=O)c1c(-c2ccc(F)cc2)oc2cc(-c3c(C)noc3C)c(OCc3nnnn3C)cc12			≤0.5 µM
COc1nc(NCCc2ccccn2)nc(Nc2ccc3cn[nH]c3c2)n1			1–10 µg/mL
O=C(O)CCN1C(=O)C(=Cc2ccc(-c3cc4ccccc4s3)o2)SC1=S			≤1 µM
Cc1cc(SC2=C(O)CC(CCc3cc(Cl)c(N)c(Cl)c3)(C(C)C)OC2=O)c(C(C)(C)C)cc1N			10–50 µM
COc1c(-c2ccc3cc(NS(C)(=O)=O)ccc3c2)cc(-n2ccc(=O)[nH]c2=O)cc1C(C)(C)C	nucleotide incorporation	GT 2a#1	16.4 µM
COc1ccc(CCC2(C3CCCC3)CC(=O)C(C(=O)Cc3cccnc3)C(=O)O2)cc1			1–10 µM
CCCc1ccc(-c2ccc(C=C3SC(=S)N(c4ccc(C(=O)O)cc4)C3=O)o2)s1			≤1 µM
CCOC(=O)c1cnc(SC2=C(O)CC(CCc3ccc(OC)cc3)(C3CCCC3)OC2=O)[nH]1			1–10 µM
CNC(=O)c1c(-c2ccc(F)cc2)oc2cc(N3CCOCC3)c(OCc3csc(C)n3)cc12			≤0.5 µM
COc1ccc(OCC2(C3CCCC3)CC(=O)CC(=O)O2)cc1			>50 µM
CNC(=O)c1c(-c2ccc(F)cc2)oc2cc(-c3c(C)noc3C)c(OCCN3CCC(C#N)CC3)cc12			≤0.5 µM
COc1nc(Nc2ccc3cn[nH]c3c2)nc(N2CCC(O)CC2)n1			1–10 µg/mL
COc1ccc(CCC2(C3CCCC3)CC(O)=C(Sc3ccc(O)cc3)C(=O)O2)cc1Cl			<1 µM
COc1nc(Nc2ccc3[nH]ncc3c2)nc(NN2CCOCC2)n1			1–10 µg/mL
Cc1cc(-c2ccc(C=C3SC(=S)NC3=O)o2)oc1C			≤1 µM
Cc1ccc(S(=O)(=O)Oc2cc(C(C)(C)C)c(SC3=C(O)CC(CCc4ccc(O)cc4)(C4CCCC4)OC3=O)cc2C)cc1			10–50 µM
COc1nc(Nc2ccc3cn[nH]c3c2)nc(N2CCOCC2)n1			1–10 µg/mL

Repeating the first 4 entries:

smiles,method,strain or isolate,result
COc1ccc(-c2ccc(C=C3SC(=S)N(c4ccc(C(=O)O)cc4)C3=O)o2)cc1OC,,,≤1 µM
Cc1cc(SC2=C(O)CC(CCc3ccc(O)cc3)(C3CCCC3)OC2=O)c(C(C)(C)C)cc1CO,,,<1 µM
COc1nc(NCCCn2ccnc2)nc(Nc2ccc3cn[nH]c3c2)n1,,,1–10 µg/mL
CNC(=O)c1c(-c2ccc(F)cc2)oc2cc(N(Cc3cccc(CBr)n3)S(C)(=O)=O)c(OCc3cccc(CBr)n3)cc12,,,≤0.5 µM